Experimental data reported in patent US20240391942A1 (priority 2021, published 2024).

Assays:
[1] = tested on: Trichomonas vaginalis ATCC30236; test: In vitro MIC
[2] = tested on: Helicobacter pylori ATCC700392; test: In vitro MIC (CLSI)
[3] = tested on: Clostridium difficile ATCC700057; test: In vitro MIC (CLSI)
[4] = tested on: Helicobacter pylori ATCC43504; test: In vitro MIC (CLSI)
[5] = tested on: Klebsiella pneumoniae WX-KP021; test: In vitro MIC (CLSI)
[6] = tested on: Morganella morgani WX-M. morgani001; test: In vitro MIC (CLSI)
[7] = tested on: Klebsiella pneumoniae WX-KP013; test: In vitro MIC (CLSI)
[8] = tested on: Bacterioides fragilis ATCC25285; test: In vitro MIC (CLSI)
[9] = tested on: Enterococcus faecalis ATCC51575; test: In vitro MIC (CLSI)
[10] = tested on: Klebsiella pneumoniae WX-KP041; test: In vitro MIC (CLSI)
[11] = tested on: Neisseria gonorrhoeae 35/02; test: In vitro MIC (CLSI)
[12] = tested on: Propionibacterium acnes ATCC6919; test: In vitro MIC (CLSI)
[13] = tested on: Neisseria gonorrhoeae ATCC700825; test: In vitro MIC (CLSI)
[14] = tested on: Streptococcus pneumoniae WX-SP001; test: In vitro MIC (CLSI)
[15] = tested on: Helicobacter pylori ATCC700824; test: In vitro MIC (CLSI)
[16] = tested on: Aspergillus fumigatus ATCCMYA-4609; test: In vitro MIC (CLSI)
[17] = tested on: Peptostreptococcus anaerobius ATCC27337; test: In vitro MIC (CLSI)
[18] = tested on: Staphylococcus epidermidis ATCC35983; test: In vitro MIC (CLSI)
[19] = tested on: Streptococcus pneumoniae WX-SP002; test: In vitro MIC (CLSI)
[20] = tested on: Enterobacter cloacae WX-E. cloacae003; test: In vitro MIC (CLSI)
[21] = tested on: Neisseria gonorrhoeae ATCC49226; test: In vitro MIC (CLSI)
[22] = tested on: Klebsiella pneumoniae WX-KP037; test: In vitro MIC (CLSI)
[23] = tested on: Enterobacter cloacae WX-E. cloacae002; test: In vitro MIC (CLSI)
[24] = tested on: Enterobacter cloacae WX-E. cloacae001; test: In vitro MIC (CLSI)

`O=[As]c1cc(F)c(F)c(F)c1` (stereo not shown) was tested, and the “Minimum Inhibitory Concentration (MIC)” value [1] was 0.125 µg/mL, the “Minimum Inhibitory Concentration (MIC)” value [2] was 0.25 µg/mL and the “Minimum Inhibitory Concentration (MIC)” value [3] was 0.5 µg/mL. The “Minimum Inhibitory Concentration (MIC)” value [4] was 0.25 µg/mL, the “Minimum Inhibitory Concentration (MIC)” value [5] was 0.5 µg/mL and the “Minimum Inhibitory Concentration (MIC)” value [6] was 2 µg/mL. The “Minimum Inhibitory Concentration (MIC)” value [7] was 1 µg/mL, the “Minimum Inhibitory Concentration (MIC)” value [8] was 0.25 µg/mL and the “Minimum Inhibitory Concentration (MIC)” value [9] was 0.25 µg/mL. The “Minimum Inhibitory Concentration (MIC)” value [10] was 1 µg/mL, the “Minimum Inhibitory Concentration (MIC)” value [11] was 0.125 µg/mL and the “Minimum Inhibitory Concentration (MIC)” value [12] was 0.5 µg/mL. The “Minimum Inhibitory Concentration (MIC)” value [13] was no more than 0.06 µg/mL, the “Minimum Inhibitory Concentration (MIC)” value [14] was 0.125 µg/mL and the “Minimum Inhibitory Concentration (MIC)” value [15] was 0.25 µg/mL. For the same compound, the “Minimum Inhibitory Concentration (MIC)” value [16] was 2 µg/mL, the “Minimum Inhibitory Concentration (MIC)” value [17] was 0.25 µg/mL and the “Minimum Inhibitory Concentration (MIC)” value [18] was no more than 0.002 µg/mL. For the same compound, the “Minimum Inhibitory Concentration (MIC)” value [19] was 0.25 µg/mL, the “Minimum Inhibitory Concentration (MIC)” value [20] was 0.25 µg/mL and the “Minimum Inhibitory Concentration (MIC)” value ([21]; Neisseria gonorrhoeae ATCC49226, first part of Table 12) was 0.125 µg/mL. For the same compound, the “Minimum Inhibitory Concentration (MIC)” value ([21]; Neisseria gonorrhoeae ATCC49226, last part of Table 12) was 0.06 µg/mL, the “Minimum Inhibitory Concentration (MIC)” value [22] was 0.25 µg/mL and the “Minimum Inhibitory Concentration (MIC)” value [23] was 2 µg/mL. For the same compound, the “Minimum Inhibitory Concentration (MIC)” value [24] was 0.25 µg/mL.
